Measurements reported in patent US20140296141A1 (NEW YORK UNIVERSITY, published 2014).

Target: T1, HIV-1 gp41 fusion peptide N36 (HIV-1, N-terminal acetyl (Ac-), C-terminal amide (-NH2))
T1 construct: Synthetic peptide, HPLC purified; In the six-helix bundle (6HB) three N36 helices form the trimeric coiled-coil core; also called NHR peptide N36; gp41 N-terminal heptad repeat peptide N36
Assay: native PAGE mobility shift, equimolar peptides in PBS at 37 C

B1: HIV-1 gp41 fusion peptide C34 (peptide)
peptide: not shown
modifications: N-terminal acetyl (Ac-), C-terminal amide (-NH2)
notes: Synthetic peptide, HPLC purified; In the six-helix bundle (6HB) three C34 helices surround the N36 trimeric core; also called CHR peptide C34
- binding result: binds
